{"sequences": {"note": "Protein sequences, listed by entry. Tags and fused reporters are not part of them.", "UniProt P15390, whole entry": "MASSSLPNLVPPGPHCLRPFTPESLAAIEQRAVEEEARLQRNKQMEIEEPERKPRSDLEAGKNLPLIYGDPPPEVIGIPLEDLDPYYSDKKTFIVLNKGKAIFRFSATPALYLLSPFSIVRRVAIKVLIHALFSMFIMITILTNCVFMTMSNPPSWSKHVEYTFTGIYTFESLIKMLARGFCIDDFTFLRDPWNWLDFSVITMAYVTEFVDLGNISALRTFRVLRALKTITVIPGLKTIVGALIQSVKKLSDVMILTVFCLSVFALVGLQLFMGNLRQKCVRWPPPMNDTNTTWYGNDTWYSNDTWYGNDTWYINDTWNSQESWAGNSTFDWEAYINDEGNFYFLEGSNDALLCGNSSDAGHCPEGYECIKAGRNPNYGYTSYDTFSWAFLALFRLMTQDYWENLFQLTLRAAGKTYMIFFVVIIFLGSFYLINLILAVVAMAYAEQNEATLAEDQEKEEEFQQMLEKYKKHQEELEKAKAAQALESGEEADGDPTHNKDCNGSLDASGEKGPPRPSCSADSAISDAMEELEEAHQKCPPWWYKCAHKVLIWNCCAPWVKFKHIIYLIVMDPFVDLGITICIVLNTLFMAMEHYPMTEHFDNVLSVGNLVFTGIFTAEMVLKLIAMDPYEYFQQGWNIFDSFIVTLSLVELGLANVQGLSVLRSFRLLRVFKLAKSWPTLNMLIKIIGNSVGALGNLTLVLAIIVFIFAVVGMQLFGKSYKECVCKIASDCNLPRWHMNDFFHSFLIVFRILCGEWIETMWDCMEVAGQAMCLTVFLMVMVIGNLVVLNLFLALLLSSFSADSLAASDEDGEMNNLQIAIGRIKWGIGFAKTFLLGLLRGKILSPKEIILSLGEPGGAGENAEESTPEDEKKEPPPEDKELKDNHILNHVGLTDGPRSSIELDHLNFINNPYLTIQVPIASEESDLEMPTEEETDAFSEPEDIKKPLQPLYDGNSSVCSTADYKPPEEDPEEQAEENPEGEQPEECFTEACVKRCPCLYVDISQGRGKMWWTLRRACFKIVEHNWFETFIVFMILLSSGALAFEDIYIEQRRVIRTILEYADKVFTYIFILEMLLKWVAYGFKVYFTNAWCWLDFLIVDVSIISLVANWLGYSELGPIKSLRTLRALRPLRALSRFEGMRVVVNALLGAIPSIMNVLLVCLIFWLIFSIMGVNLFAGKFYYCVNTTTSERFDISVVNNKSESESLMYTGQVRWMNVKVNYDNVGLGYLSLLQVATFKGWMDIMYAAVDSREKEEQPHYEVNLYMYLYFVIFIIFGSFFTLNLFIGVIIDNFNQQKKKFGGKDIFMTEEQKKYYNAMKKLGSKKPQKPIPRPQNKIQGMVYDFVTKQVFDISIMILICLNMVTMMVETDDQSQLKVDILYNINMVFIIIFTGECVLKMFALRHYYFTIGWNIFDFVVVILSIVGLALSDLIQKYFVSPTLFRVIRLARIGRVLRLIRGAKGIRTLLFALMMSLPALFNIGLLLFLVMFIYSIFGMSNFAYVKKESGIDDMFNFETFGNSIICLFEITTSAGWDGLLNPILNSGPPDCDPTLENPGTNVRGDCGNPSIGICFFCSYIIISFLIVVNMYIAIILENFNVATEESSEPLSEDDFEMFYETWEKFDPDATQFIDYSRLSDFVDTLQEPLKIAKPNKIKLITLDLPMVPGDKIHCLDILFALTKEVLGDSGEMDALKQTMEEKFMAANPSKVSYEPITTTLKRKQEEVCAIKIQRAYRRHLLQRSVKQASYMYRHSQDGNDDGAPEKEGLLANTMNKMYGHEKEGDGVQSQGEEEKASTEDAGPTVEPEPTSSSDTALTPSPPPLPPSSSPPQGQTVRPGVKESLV", "UniProt P35500, whole entry": "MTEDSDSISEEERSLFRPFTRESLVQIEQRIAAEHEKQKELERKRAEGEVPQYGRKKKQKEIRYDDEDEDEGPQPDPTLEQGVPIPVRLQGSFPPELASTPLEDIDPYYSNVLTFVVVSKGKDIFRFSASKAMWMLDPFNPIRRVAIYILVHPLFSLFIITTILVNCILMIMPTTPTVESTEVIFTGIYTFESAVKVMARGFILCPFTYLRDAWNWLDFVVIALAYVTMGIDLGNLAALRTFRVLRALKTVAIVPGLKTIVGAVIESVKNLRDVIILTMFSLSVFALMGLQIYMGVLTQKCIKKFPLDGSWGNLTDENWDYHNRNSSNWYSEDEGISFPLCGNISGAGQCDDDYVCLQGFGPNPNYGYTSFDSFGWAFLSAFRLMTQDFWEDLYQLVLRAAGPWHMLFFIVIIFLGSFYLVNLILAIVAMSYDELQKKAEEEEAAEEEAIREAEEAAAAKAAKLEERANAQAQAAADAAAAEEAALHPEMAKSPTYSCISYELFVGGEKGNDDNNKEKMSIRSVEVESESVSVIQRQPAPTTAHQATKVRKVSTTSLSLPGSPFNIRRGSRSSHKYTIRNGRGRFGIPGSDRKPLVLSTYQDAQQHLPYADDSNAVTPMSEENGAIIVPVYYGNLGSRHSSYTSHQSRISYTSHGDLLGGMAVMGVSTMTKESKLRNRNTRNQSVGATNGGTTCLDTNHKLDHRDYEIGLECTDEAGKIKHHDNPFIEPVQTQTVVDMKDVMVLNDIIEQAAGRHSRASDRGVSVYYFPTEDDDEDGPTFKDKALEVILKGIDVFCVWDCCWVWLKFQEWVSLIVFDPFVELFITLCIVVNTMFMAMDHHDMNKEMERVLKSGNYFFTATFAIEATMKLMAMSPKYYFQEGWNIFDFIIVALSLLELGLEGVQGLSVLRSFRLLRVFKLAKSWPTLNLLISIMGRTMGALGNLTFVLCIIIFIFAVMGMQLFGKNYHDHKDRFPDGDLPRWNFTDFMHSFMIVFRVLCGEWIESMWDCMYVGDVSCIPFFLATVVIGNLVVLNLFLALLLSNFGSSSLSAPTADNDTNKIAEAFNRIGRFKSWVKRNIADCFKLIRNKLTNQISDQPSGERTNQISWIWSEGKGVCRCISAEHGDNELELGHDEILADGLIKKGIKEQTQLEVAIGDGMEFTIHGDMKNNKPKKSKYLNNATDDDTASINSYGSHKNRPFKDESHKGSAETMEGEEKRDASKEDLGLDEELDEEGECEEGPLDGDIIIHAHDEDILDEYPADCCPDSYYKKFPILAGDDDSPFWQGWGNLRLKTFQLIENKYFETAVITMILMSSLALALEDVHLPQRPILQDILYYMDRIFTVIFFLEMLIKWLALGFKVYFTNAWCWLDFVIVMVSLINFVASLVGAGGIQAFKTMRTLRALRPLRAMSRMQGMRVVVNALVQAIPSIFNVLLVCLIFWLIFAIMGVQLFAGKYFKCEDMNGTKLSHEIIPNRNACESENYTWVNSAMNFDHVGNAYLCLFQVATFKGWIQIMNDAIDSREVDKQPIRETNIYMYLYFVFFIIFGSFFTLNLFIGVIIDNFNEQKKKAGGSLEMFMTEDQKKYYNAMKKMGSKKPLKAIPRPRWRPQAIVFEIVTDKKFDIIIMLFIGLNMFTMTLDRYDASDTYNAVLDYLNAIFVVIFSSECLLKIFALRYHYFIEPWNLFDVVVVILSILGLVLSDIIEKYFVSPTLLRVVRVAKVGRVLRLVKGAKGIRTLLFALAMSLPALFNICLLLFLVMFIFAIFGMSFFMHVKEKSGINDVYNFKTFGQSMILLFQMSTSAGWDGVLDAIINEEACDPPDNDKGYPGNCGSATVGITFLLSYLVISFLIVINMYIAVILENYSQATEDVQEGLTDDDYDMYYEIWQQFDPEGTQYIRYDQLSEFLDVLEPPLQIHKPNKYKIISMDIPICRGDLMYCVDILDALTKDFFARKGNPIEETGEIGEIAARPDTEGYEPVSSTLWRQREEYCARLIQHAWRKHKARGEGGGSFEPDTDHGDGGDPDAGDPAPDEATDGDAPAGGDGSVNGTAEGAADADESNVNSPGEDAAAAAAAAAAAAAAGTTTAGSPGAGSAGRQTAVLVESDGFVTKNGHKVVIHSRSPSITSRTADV", "UniProt Q9WTU3, whole entry": "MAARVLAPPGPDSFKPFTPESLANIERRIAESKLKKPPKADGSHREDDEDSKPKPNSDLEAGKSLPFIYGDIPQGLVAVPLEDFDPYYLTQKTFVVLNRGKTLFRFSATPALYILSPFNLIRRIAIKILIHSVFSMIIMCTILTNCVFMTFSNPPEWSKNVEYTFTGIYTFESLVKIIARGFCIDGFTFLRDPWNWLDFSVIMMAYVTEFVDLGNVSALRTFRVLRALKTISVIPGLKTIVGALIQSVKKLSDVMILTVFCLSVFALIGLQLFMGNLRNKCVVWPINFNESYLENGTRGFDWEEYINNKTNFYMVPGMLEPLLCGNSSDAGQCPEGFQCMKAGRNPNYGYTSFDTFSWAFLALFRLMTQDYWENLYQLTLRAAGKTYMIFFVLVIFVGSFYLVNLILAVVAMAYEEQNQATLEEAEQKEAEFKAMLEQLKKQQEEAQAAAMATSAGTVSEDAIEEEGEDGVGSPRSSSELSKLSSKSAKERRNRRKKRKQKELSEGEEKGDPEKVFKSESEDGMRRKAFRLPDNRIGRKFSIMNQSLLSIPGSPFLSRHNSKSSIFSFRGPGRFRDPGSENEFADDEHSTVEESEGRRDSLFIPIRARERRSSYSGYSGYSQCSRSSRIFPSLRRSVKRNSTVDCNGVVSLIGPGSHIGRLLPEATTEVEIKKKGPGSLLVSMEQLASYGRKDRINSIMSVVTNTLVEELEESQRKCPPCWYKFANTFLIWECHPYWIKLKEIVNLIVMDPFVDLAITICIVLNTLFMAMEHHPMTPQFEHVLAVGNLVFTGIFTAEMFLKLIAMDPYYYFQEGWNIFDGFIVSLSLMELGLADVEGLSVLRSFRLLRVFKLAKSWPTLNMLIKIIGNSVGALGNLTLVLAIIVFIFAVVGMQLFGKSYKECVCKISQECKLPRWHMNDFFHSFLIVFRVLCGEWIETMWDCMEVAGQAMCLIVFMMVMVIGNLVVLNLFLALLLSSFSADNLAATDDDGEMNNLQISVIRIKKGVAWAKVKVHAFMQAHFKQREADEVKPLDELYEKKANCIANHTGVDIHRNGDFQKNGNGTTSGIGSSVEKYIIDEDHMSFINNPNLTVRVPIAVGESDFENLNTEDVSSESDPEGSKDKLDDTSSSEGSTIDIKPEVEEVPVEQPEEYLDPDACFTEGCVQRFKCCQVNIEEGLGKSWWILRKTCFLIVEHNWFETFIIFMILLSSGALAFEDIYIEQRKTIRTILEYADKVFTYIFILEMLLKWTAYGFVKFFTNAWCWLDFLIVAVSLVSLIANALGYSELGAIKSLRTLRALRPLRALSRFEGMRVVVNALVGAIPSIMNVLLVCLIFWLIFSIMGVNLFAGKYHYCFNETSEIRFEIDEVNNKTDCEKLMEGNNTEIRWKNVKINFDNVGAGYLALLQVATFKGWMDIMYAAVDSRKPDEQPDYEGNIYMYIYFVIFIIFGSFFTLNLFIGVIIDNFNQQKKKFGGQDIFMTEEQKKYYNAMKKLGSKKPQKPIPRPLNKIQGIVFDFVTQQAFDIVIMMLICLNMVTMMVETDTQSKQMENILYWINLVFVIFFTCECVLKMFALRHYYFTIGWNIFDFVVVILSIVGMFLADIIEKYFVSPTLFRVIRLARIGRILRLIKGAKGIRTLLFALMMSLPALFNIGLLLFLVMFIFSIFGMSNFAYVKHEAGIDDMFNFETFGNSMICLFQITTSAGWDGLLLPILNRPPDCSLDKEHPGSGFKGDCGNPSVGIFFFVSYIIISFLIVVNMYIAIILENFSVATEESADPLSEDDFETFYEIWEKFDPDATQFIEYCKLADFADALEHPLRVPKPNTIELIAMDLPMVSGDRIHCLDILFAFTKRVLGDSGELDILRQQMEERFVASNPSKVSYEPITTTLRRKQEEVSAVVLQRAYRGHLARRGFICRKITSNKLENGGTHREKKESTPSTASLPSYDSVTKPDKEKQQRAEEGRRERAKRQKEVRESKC"}, "source": "patent US20190256564A1", "about": "“NEMERTEA-DERIVED BIOACTIVE COMPOUNDS” (priority 2016, published 2019)", "key": {"[1]": {"test_system": "VdNav1", "experiment": "Two-electrode voltage clamp, VdNav1 expressed in Xenopus oocytes", "format": "cell-based, Varroa destructor", "conditions": "1 μM"}, "[2]": {"biological_target": "Nav1.1 (Rattus norvegicus, UniProt P04774)", "experiment": "Two-electrode voltage clamp, Nav1.1 expressed in Xenopus oocytes", "format": "cell-based", "conditions": "6 μM"}, "[3]": {"biological_target": "Nav1.4 (Rattus norvegicus, UniProt P15390)", "experiment": "Two-electrode voltage clamp, Nav1.4 expressed in Xenopus oocytes", "format": "cell-based"}, "[4]": {"biological_target": "DmNav1 (Drosophila melanogaster, UniProt P35500)", "experiment": "Two-electrode voltage clamp, DmNav1 expressed in Xenopus oocytes", "format": "cell-based"}, "[5]": {"biological_target": "Nav1.6 (Mus musculus, UniProt Q9WTU3)", "experiment": "Two-electrode voltage clamp, Nav1.6 expressed in Xenopus oocytes", "format": "cell-based"}, "[6]": {"biological_target": "Nav1.5 (Homo sapiens, UniProt Q14524)", "experiment": "Two-electrode voltage clamp, Nav1.5 expressed in Xenopus oocytes", "format": "cell-based"}, "[7]": {"test_system": "BgNav1", "experiment": "Two-electrode voltage clamp, BgNav1 expressed in Xenopus oocytes", "format": "cell-based, Blattella germanica"}}, "note": "“Also recorded” adds a separate entry of the source.", "data": [{"compound": "CC[C@H](C)[C@@H]1NC(=O)[C@@H](NC(=O)CN)CSSC[C@@H]2NC(=O)[C@@H]3CSSC[C@@H](C(=O)N[C@@H](CC(N)=O)C(=O)N4C[C@H](O)C[C@H]4C(=O)N4C[C@H](O)C[C@H]4C(=O)N[C@@H](CC(N)=O)C(=O)N[C@@H](CCC(N)=O)C(=O)O)NC(=O)[C@H](CCCCN)NC(=O)[C@H](Cc4ccccc4)NC(=O)[C@H](CC(N)=O)NC(=O)[C@H](Cc4c[nH]c5ccccc45)NC(=O)CNC(=O)[C@H](CSSC[C@H](NC(=O)[C@H](Cc4ccccc4)NC(=O)[C@H](CO)NC(=O)CNC(=O)[C@H]([C@@H](C)O)NC(=O)[C@H](C)NC1=O)C(=O)N[C@@H]([C@@H](C)O)C(=O)N[C@@H](CC(C)C)C(=O)N[C@@H](CO)C(=O)N[C@@H](CCCCN)C(=O)NCC(=O)N3)NC(=O)[C@H](CC(N)=O)NC(=O)[C@H](CCCCN)NC(=O)[C@H]([C@@H](C)O)NC2=O", "note": "[Nemertide α-1]", "values": [{"measurement": "effect on inactivation of VdNav1", "setting": "[1]", "result": "completely inhibited their inactivation"}, {"measurement": "kinetics of gating of Nav1.1 (steady-state activation and inactivation)", "setting": "[2]", "result": "No significant alterations"}, {"measurement": "effect on inactivation of Nav1.4", "setting": "[3]; 6 μM", "result": "significantly delayed the inactivation"}, {"measurement": "midpoint of activation of Nav1.4", "setting": "[3]; 6 μM", "result": "did not shift significantly"}, {"measurement": "V1/2 of inactivation of Nav1.4", "setting": "[3]; in the presence of 6 μM toxin, control −38.1±0.2 mV", "result": "−48.6±0.4", "unit": "mV"}, {"measurement": "effect on inactivation of DmNav1", "setting": "[4]; 1 μM", "result": "complete inhibition of the inactivation; also recorded: completely inhibited their inactivation"}, {"measurement": "EC50", "setting": "[4]; read-out: EC50 on insect (DmNav1) channel", "result": 8, "unit": "nM"}, {"measurement": "V1/2 of inactivation of Nav1.6", "setting": "[5]; 6 μM toxin, control −53, 6±0.5 mV", "result": "−49.8±0.2", "unit": "mV"}, {"measurement": "V1/2 of activation of Nav1.6", "setting": "[5]; after application of 6 μM, control −20.8±0.1 mV", "result": "−17.3±0.3", "unit": "mV"}, {"measurement": "EC50", "setting": "[5]; concentration-response curve, read-out: EC50 of modulatory effect on Nav1.6", "result": 800, "unit": "nM"}, {"measurement": "midpoint of activation of Nav1.5", "setting": "[6]; after application of 6 μM toxin, control −42.4±0.1 mV", "result": "−36.3±0.1", "unit": "mV"}, {"measurement": "midpoint of inactivation of Nav1.5", "setting": "[6]; in the presence of 6 μM toxin, control −62.2±0.2 mV", "result": "−50.6±0.1", "unit": "mV"}, {"measurement": "effect on recovery from inactivation of BgNav1", "setting": "[7]; 10 nM", "result": "significantly enhanced the recovery from inactivation"}, {"measurement": "state-dependence of toxin interaction with BgNav", "setting": "[7]; 10 nM, 2 minutes incubation without pulsing", "result": "open state is not required for toxin interaction with the channel"}, {"measurement": "τ of recovery from inactivation of BgNav1", "setting": "[7]; 10 nM, control 11.6±0.4 ms", "result": "3.8 ± 0.5", "unit": "ms"}, {"measurement": "V1/2 of activation of BgNav1", "setting": "[7]; 10 nM, control −29.1±2.2 mV", "result": "−32.5±3.2", "unit": "mV"}, {"measurement": "EC50", "setting": "[7]; concentration-response curve", "result": "8.6 ± 2.9", "unit": "nM"}]}]}
